Data on eight molecules can be found in EP2177496A1, “New analogs of polysphorin and uses thereof for treating or preventing malaria” (Assistance Publique - Hôpitaux de Paris, priority 2008, dated 2010).

What all share (conditions): selectivity index = ratio of TC50 to IC50
The subject of series [1] is P. yoelii. Nature of the series: In vitro activity against hepatic stage of P. yoelii (sporozoite-infected HepG2/CD81 cells or rodent hepatocytes, liver-schizont count). Type of series: cell-based, P. yoelii (265 BY strain). On the procedure: (§1) Activity against pre-erythrocytic stages was tested by in vitro assays with the human parasite P. falciparum (NF54 strain) and the rodent parasite P. yoelii (265 BY strain). The rodent parasite P. yoelii is produced in the insectarium of the INSERM Unit U511 and human parasite P. falciparum was obtained from collaboration with R. Sauerwein.
(§2) Sporozoites were obtained from infected salivary glands of Anopheles stephensi mosquitoes fed on continuous culture of P. falciparum (coll R. Sauerwein, Netherlands), or on P. yoelii parasitized mice (insectarium of the INSERM Unit U511). After aseptic dissection, salivary glands were homogenized in a glass grinder and diluted in culture medium or sterile phosphate-buffered saline (PBS).
(§3) Primary cultures of rodent or human hepatocytes were prepared from liver segments taken from mouse or from adult patients undergoing partial hepatectomy. Hepatocytes were isolated using the two-step enzymatic perfusion technique (Guguen-Guillouzo et al., 1982) and were further purified on a discontinuous Percoll gradient. Then, hepatocytes were seeded in eight-chamber Lab-Tek permanox slides at a density of 1,4x10^5 cells per cm^2, and maintained under culture conditions as described in Mahmoudi et al., 2003. After complete adherence to culture plates, rodent and human hepatocytes were infected with P. yoelii or P. falciparum sporozoites, respectively, aseptically dissected from mosquitoes' salivary glands, as described above. Hepatocytes were inoculated with 6x10^4 sporozoites per Lab-Tek well. Compounds to be tested were added at the time of infection and/or after penetration of the sporozoites and at different concentrations (three wells per dilution). Every day, medium was replaced by fresh medium containing or not different concentrations of the molecules to be tested. Cultures were arrested at 48 hours (P. yoelii) or 6 days (P. falciparum) and cells were fixed with methanol. Liver-schizonts were quantified by microscopic examination after fluorescent labeling using a primary mouse antibody directed against Plasmodium heat shock protein-70 (Renia et al., 1990) produced in INSERM unit 511 and a secondary goat anti-mouse antibody conjugated with fluorescein isothiocyanate (Sigma Aldrich).

Series [2] relates to P. falciparum. Nature of the series: In vitro activity against hepatic stage of P. falciparum in primary human hepatocytes (liver-schizont count). It is filed as cell-based, P. falciparum (NF54 strain). On the procedure:
as §1, §2
as §3, with “Every day, medium was replaced by fresh medium containing or not different concentrations of the molecules to be tested. Cultures were arrested at 48 hours (P. yoelii) or 6 days (P. falciparum) and cells were fixed with methanol.” left out

The test system of series [3] is P. falciparum. The series is described as follows: In vitro activity against erythrocytic stage of P. falciparum ([3H]-hypoxanthine incorporation). Type of series: cell-based, chloroquine-sensitive (3D7w) clone of P. falciparum. On the procedure:
After 48 hours, [^3H]-hypoxanthine (Amersham) was added to each well and then plates were incubated for 24 hours. Parasites were harvested, and incorporation of radioactivity was determined by liquid scintillation counting (Beckman LS1701, les Ulis, France). The counts-per-minute (cpm) was adjusted relative to controls to obtain percentages of inhibition. […] This estimation was obtained with IC50 estimator software. For the assay, the parasites were synchronized by D-sorbitol treatment.

As for `COc1cc(C(O)C(C)Oc2c(OC)cc(C)cc2OC)cc(OC)c1OC` (stereo not shown) [drawing 77], the “SI Hepatic stage (rodent) P. yoelii” value in series [1] is on record as 11008. Besides, in series [2], the “SI Hepatic stage (human) P. Falciparum” value came out at 328.

Turning to `COc1cccc(OC)c1OC(C)C(O)c1ccc2c(c1)OC(F)(F)O2` (stereo not shown) [drawing 71], the “SI Hepatic stage (rodent) P. yoelii” value in series [1] is reported as 2.62.

Consider `COc1cc(C(O)C(C)Oc2c(OC)cc(C)cc2OC)cc(OC)c1OC` (stereo not shown) [drawing 76], for which the “SI Hepatic stage (rodent) P. yoelii” value in series [1] is 0.94.

`COc1cc(C(O)C(C)Oc2c(OC)cc(-c3ccccc3)cc2OC)cc(OC)c1OC` (stereo not shown) [drawing 78]: in series [1], the “SI Hepatic stage (rodent) P. yoelii” value is recorded as >14. Moreover, the “SI Hepatic stage (human) P. Falciparum” value in series [2] is given as 2500. For the same molecule, the “SI Erythrocytic stage P. falciparum” value in series [3] was 4.34.

For `COc1cc(C(O)C(C)Oc2c(OC)cccc2OC)cc(OC)c1OC` (stereo not shown) [drawing 75], the “SI Hepatic stage (rodent) P. yoelii” value in series [1] is 0.05.

In the case of `COc1cccc(OC)c1OC(C)C(O)c1ccc2c(c1)OC(F)(F)O2` (stereo not shown) [drawing 70], in series [1], the “SI Hepatic stage (rodent) P. yoelii” value came to 2.73.

Regarding `COc1cc(C(O)C(C)Oc2c(OC)cc(-c3ccccc3)cc2OC)cc(OC)c1OC` (stereo not shown) [drawing 79], in series [1], the “SI Hepatic stage (rodent) P. yoelii” value is >13.85. For the same molecule, the “SI Hepatic stage (human) P. Falciparum” value in series [2] turned out to be 7142. Moreover, the “SI Erythrocytic stage P. falciparum” value in series [3] is on record as 2.5.

Consider `COc1cc(C(O)C(C)Oc2c(OC)cccc2OC)cc(OC)c1OC` (stereo not shown) [drawing 74], for which the “SI Hepatic stage (rodent) P. yoelii” value in series [1] came out at 2.02.
